PubChem BioAssay AID624099, ICCB-Longwood | 2012
Screen: 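Human genes that papillomavirus E2 requires to repress the HPV18 LCR promoter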 (primary screen). System: human C33A cervical carcinoma cells (HPV-negative) stably expressing BPV1 E2 and an HPV18 LCR luciferase reporter. Reagents: siRNA pool against human genes, 40 nM. Duration: 72 h. Read-out: 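HPV18 LCR reporter light per well, converted to plate-wise z-scores that exclude control wells, and averaged over triplicate plates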. Reading the numbers: mean z-score and z-score: higher = stronger reporter signal, weaker E2 silencing. Active means: 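Mean z ≥ 2 together with z ≥ 2 in two or more of the three replicates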.
This is an unselected part of about 21,000 reagents tested. Of all reagents, 497 (2.4%) were called active. 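Higher z means weaker E2 silencing; only reporter increases were scored, and knock-downs that hurt cell survival may mask genuine repressor factors.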 Entries without a mark were called inactive. Reagent sequences are not shown.

no.	Gene	mean z-score	z-score, replicate A	z-score, replicate B	z-score, replicate C
1	AMER1 (APC membrane recruitment protein 1)	-0.02	-0.16	0.21	-0.1
2	COL4A1 (collagen type IV alpha 1 chain)	0	-0.06	0.12	-0.07
3	LYAR (Ly1 antibody reactive)	-1.1	-0.84	-1.27	-1.2
4	FHOD1 (formin homology 2 domain containing 1)	1.26	1.14	1.44	1.2
5	LZIC (leucine zipper and CTNNBIP1 domain containing)	0.86	0.91	1.06	0.6
6	CEP57L1P1 (centrosomal protein 57 like 1 pseudogene 1)	-0.01	-0.25	0.22	-0.01
7	INTS2 (integrator complex subunit 2)	-0.59	-0.77	-0.44	-0.57
8	PRSS38 (serine protease 38)	-1.02	-1.06	-1.11	-0.91
9	NUDCD3 (NudC domain containing 3)	1.35	1.23	1.36	1.44
10	NFRKB (nuclear factor related to kappaB binding protein)	0.33	0.43	0.26	0.31
11	PACSIN2 (protein kinase C and casein kinase substrate in neurons 2)	-0.96	-0.93	-0.87	-1.08
12	APOBEC3B (apolipoprotein B mRNA editing enzyme catalytic subunit 3B)	-0.31	0.1	-0.38	-0.65
13	CACNG2 (calcium voltage-gated channel auxiliary subunit gamma 2)	-0.28	-0.61	-0.05	-0.18
14	AHI1 (Abelson helper integration site 1)	0.96	1.11	0.94	0.84
15	OR4C45	-0.83	-1.46	-0.72	-0.31
16	ZNF451 (zinc finger protein 451)	-0.35	-0.66	-0.08	-0.31
17	SNAP47 (synaptosome associated protein 47)	0.79	0.79	0.49	1.1
18	RBM3 (RNA binding motif protein 3)	0.18	0.19	0.16	0.19
19	LRRC56 (leucine rich repeat containing 56)	-1.17	-1.15	-1.23	-1.12
20	HOGA1 (4-hydroxy-2-oxoglutarate aldolase 1)	-1.46	-1.2	-1.48	-1.69
21	SRSF7 (serine and arginine rich splicing factor 7)	0.4	-0.08	0.4	0.87
22	PRELP (proline and arginine rich end leucine rich repeat protein)	-0.87	-0.54	-0.97	-1.1
23	LOC285721 (retired record)	2.14 (active)	2.29	2.18	1.95
24	DCTPP1 (dCTP pyrophosphatase 1)	-1	-0.89	-1.21	-0.91
25	MYL6B (myosin light chain 6B)	-0.65	-0.97	-0.29	-0.68
26	MTSS2 (MTSS I-BAR domain containing 2)	0.85	1.24	0.5	0.81
27	DUOXA1 (dual oxidase maturation factor 1)	-0.1	-0.38	0.2	-0.13
28	VAX2 (ventral anterior homeobox 2)	1.09	0.91	1.2	1.15
29	MYNN (myoneurin)	-0.31	-0.69	-0.34	0.1
30	CHRNA3 (cholinergic receptor nicotinic alpha 3 subunit)	-1.2	-1.26	-1.27	-1.06

Active calls, of those listed so far:
Gene	mean z-score	z-score, replicate A	z-score, replicate B	z-score, replicate C
LOC285721 (retired record)	2.14 (active)	2.29	2.18	1.95

The list goes on.
no.	Gene	mean z-score	z-score, replicate A	z-score, replicate B	z-score, replicate C
31	ZNHIT2 (zinc finger HIT-type containing 2)	-0.49	-0.95	-0.19	-0.32
32	SH3BGRL3 (SH3 domain binding glutamate rich protein like 3)	-1.08	-0.95	-1.13	-1.17
33	HIPK3 (homeodomain interacting protein kinase 3)	1.18	1.05	1.49	1.02
34	ZNF26 (zinc finger protein 26)	0.84	0.71	0.98	0.83
35	ORMDL1 (ORMDL sphingolipid biosynthesis regulator 1)	0.62	0.79	0.34	0.73
36	WNK3 (WNK lysine deficient protein kinase 3)	0.58	0.49	0.52	0.72
37	POLR2H (RNA polymerase II, I and III subunit H)	0.13	0.01	0.22	0.17
38	EIF4EBP2	-0.75	-0.23	-1.01	-1.02
39	LOC390638 (golgin A2 pseudogene)	-1.08	-0.98	-1.21	-1.05
40	MPDU1 (mannose-P-dolichol utilization defect 1)	0.84	0.88	0.91	0.73
41	SBK1 (SH3 domain binding kinase 1)	1	0.99	0.69	1.31
42	EGR2 (early growth response 2)	0.17	0.07	0.29	0.15
43	TRNT1 (tRNA nucleotidyl transferase 1)	0.7	0.89	0.54	0.68
44	LOC402596 (retired record)	1.84	1.73	2.03	1.76
45	RGP1 (RGP1 partner of RAB6A GEF complex)	0.91	0.92	0.67	1.14
46	FIP1L1 (factor interacting with PAPOLA and CPSF1)	0.2	0.13	-0.05	0.51
47	PABPC1 (poly(A) binding protein cytoplasmic 1)	-0.32	-0.26	-0.6	-0.11
48	ST3GAL1 (ST3 beta-galactoside alpha-2,3-sialyltransferase 1)	0.51	-0.21	0.78	0.98
49	ANAPC11 (anaphase promoting complex subunit 11)	0.08	0.02	0.2	0.02
50	PBX4 (PBX homeobox 4)	-0.77	-0.67	-0.87	-0.78
51	CD200 (CD200 molecule)	-0.73	-0.6	-0.42	-1.17
52	VCX2 (variable charge X-linked 2)	-0.81	-0.48	-1.14	-0.82
53	NACA4P (NACA family member 4, pseudogene)	-0.23	-0.26	-0.08	-0.34
54	SP1 (Sp1 transcription factor)	0.71	0.99	0.98	0.17
55	LOC400880 (retired record)	-0.66	-0.82	-0.52	-0.64
56	PPP1R12B (protein phosphatase 1 regulatory subunit 12B)	-1.01	-0.88	-1.21	-0.93
57	KLF8 (KLF transcription factor 8)	-0.27	-0.36	-0.2	-0.25
